Anti-infective test results gathered from many reports (values: NIAID ChemDB through PubChem).

Shared fields: whole-cell or culture tests; agent: Candida albicans; read-out: EC50

ECn: concentration that inhibits the pathogen or its effect by n%. An empty or dashed field is not shown. Conditions beyond the fields shown may differ between rows.

smiles	strain or isolate	method	value
Cc1c(C(=O)O)c(-c2ccc(Br)cc2)cn1-c1ccc(Cl)cc1	40 strains		>17.32 µg/mL
Cc1onc(-c2ccccc2Cl)c1C=O			>50 µg/mL
COc1cc2ccnc3c2c(c1O)N(C)C=C3			>15 µg/mL
O=Cc1cc(-c2ccc(F)cc2)no1			27.1 µg/mL
Cc1ccc(-c2cn(-c3ccc(C)cc3)c(C)c2C(=O)O)cc1	40 strains		<93.79 µg/mL
COc1cc(NC(C)CCCN)c2nc(C(C)(C)C)ccc2c1Oc1cccc(C(F)(F)F)c1			6.5 µg/mL
O=Cc1cc(-c2ccccc2Br)no1			29.57 µg/mL
O=C(O)CN1C(=O)CSC1c1c(Cl)cccc1Cl		broth dilution	83.33 µM
COCC(=O)OC[C@H]1CC[C@@](C)(C=O)[C@]1(C)C(=O)O	2005E		81 µM
O/N=C/c1cccc[n+]1Cc1ccc(C[n+]2ccccc2/C=N/O)s1.[Cl-].[Cl-]		broth dilution	>20 µg/mL
COc1cccc(C=[NH+]CC(=O)[N-]CC(=O)[O-])c1[O-].O.O.O.[K+]			<200 µg/mL
O[C@](Cn1cncn1)(Cn1cnc(/C=C/c2ccc(OCC(F)(F)C(F)F)cc2)n1)c1ccc(F)cc1F	CA033		0.5 µM
Cc1c(C(=O)O)c(-c2ccc(Cl)cc2)cn1-c1ccc(F)cc1	40 strains		>83.33 µg/mL
COc1ccccc1C1SC(C)C(=O)N1C(Cc1ccccc1)C(=O)O		broth dilution	84.14 µM
Nc1[nH]c(=O)ncc1F			<5 µg/mL
CCCCCCCC/C=C/CCCCCCCCC(=O)Oc1c(OC)cc2ccnc3c2c1N(C)C=C3			>15 µg/mL
O=Cc1cc(-c2cccc(Cl)c2)no1			28.31 µg/mL
NC(=O)c1cc[n+](Cc2ccc(C[n+]3ccc(C(N)=O)cc3)o2)cc1.[Br-].[Br-]		broth dilution	>20 µg/mL
O=[N+]([O-])c1c(Cl)cccc1-c1c[nH]cc1Cl	40 strains		>47.92 µg/mL
O=C(O)CN1C(=O)CSC1c1ccccn1		broth dilution	78.61 µM
CCCCCc1ccc(C(=O)Oc2c(OC)cc3ccnc4c3c2N(C)C=C4)cc1			4.5 µg/mL
Cc1onc(-c2ccc(Cl)cc2Cl)c1C=O			47.91 µg/mL
COc1cc2ccnc3c2c(c1OC(=O)c1cc(F)ccc1F)N(C)C=C3			>15 µg/mL
C[C@@]1(C=O)CC[C@H](COC2CCCCO2)[C@@]1(C)C(=O)O	2005E		14 µM
C[n+]1cccc(N(CCCCCC2CCCCC2)c2cccc(C#N)c2)c1.[I-]	ATCC 90028	resazurin	>20 µg/mL
OC(Cn1cncn1)(Cn1cncn1)c1ccc(F)cc1F			<5 µg/mL
Cc1onc(-c2ccc(F)cc2)c1C=O			47.61 µg/mL
Cc1c(C(=O)O)c(-c2ccc(F)cc2)cn1-c1ccc(F)cc1	40 strains		>41.67 µg/mL
CC(=O)N1CCN(c2ccc(OC[C@H]3CO[C@](Cn4ccnc4)(c4ccc(Cl)cc4Cl)O3)cc2)CC1			<5 µg/mL
COc1cc2ccnc3c2c(c1OC(=O)c1ccc(CCl)cc1)N(C)C=C3			>15 µg/mL
COc1ccccc1C1SCC(=O)N1C(Cc1ccccc1)C(=O)O		broth dilution	79.55 µM
C[C@H]1[C@H](O)[C@@H](C)/C=C/C=C/C=C/C=C/C=C/C=C/C=C/[C@H](O[C@@H]2O[C@H](C)[C@@H](O)[C@H](N)[C@@H]2O)C[C@@H]2O[C@](O)(C[C@@H](O)C[C@@H](O)CC[C@H](O)[C@@H](O)C[C@@H](O)CC(=O)O[C@H]1C)C[C@H](O)[C@H]2C(=O)O	66506	broth dilution	2 µM
Cc1onc(-c2ccc(Cl)cc2)c1C=O			34.87 µg/mL
Cc1c(C(=O)O)c(-c2ccc(F)cc2)cn1-c1ccc(Cl)cc1	40 strains		>26.04 µg/mL
C[n+]1cccc(N(CCCCCC2CCCCC2)c2ccccc2C#N)c1.[I-]	ATCC 90028	resazurin	>20 µg/mL
ON=Cc1ccc[n+](Cc2csc3ccccc23)c1.[Cl-]		broth dilution	>20 µg/mL
C[C@@]1(C=O)CC[C@H](COC(=O)c2ccccc2)[C@@]1(C)C(=O)O	2005E		32 µM
O=Cc1cc(-c2ccc([N+](=O)[O-])cc2)no1			43.18 µg/mL
NC(=O)c1cc[n+](CCCC[n+]2ccccc2/C=N/O)cc1.[Br-].[Br-]		broth dilution	>20 µg/mL
OC(Cn1cncn1)(Cn1cncn1)c1ccc(F)cc1F	ATCC 10231	broth dilution	1 µM

Repeating the first 4 entries:

smiles | strain or isolate | method | value
Cc1c(C(=O)O)c(-c2ccc(Br)cc2)cn1-c1ccc(Cl)cc1 | 40 strains |  | >17.32 µg/mL
Cc1onc(-c2ccccc2Cl)c1C=O |  |  | >50 µg/mL
COc1cc2ccnc3c2c(c1O)N(C)C=C3 |  |  | >15 µg/mL
O=Cc1cc(-c2ccc(F)cc2)no1 |  |  | 27.1 µg/mL